Pooled drug test results. Numbers come from NIAID ChemDB, via PubChem.

All rows: tests in culture; organism: Poliovirus

ECn is the concentration giving n% inhibition of infection, replication or growth. Conditions beyond the fields shown may differ between rows. Blank or dashed fields: not listed here.

smiles	strain or isolate	cells	measure	value
Nc1ncnc2c1c(Br)cn2[C@@H]1O[C@H](CO)[C@@H](O)[C@H]1O	TYPE 1	HeLa	EC50	0.007 µg/mL
Cc1c(C(N)=O)ncn1C1OC(CO)C(O)C1O	TYPE 1		EC50	>200 µg/mL
Nc1nccc2c1ncn2[C@@H]1C[C@H](CO)[C@@H](O)[C@H]1O	TYPE 1	HeLa	EC50	>400 µg/mL
COc1c(-c2ccc(O)c(O)c2)oc2cc(O)cc(O)c2c1=O		VERO	EC50	5 µg/mL
N#Cc1c(N2CCOCC2)nsc1-c1ccccc1	Brunhilde (type 1)	HEP-2	EC50	>1 µg/mL
O=c1[nH]cnc2c1ncn2[C@@H]1C=C(CO)[C@@H](O)[C@H]1O	TYPE 1	HeLa	EC50	>400 µg/mL
Nc1nccc2c1ncn2[C@@H]1C[C@H](CO)[C@@H](O)[C@H]1O	TYPE 1	HeLa	EC50	>400 µg/mL
Nc1nccc2c1ncn2[C@@H]1C[C@H](CO)[C@@H](O)[C@H]1O	TYPE 1	HeLa	EC50	>400 µg/mL
Nc1nc2c(nnn2C[C@H]2CC[C@@H](CO)C2)c(=O)[nH]1	TYPE 1	HeLa	EC50	>200 µg/mL
Cc1cn([C@H]2C[C@H](O)[C@@H](CO)[C@@H]2C)c(=O)[nH]c1=O	TYPE 1	HeLa	EC50	400 µg/mL
CCCSc1nsc(-c2ccccc2)c1C(=O)OC	Brunhilde (type 1)	HEP-2	EC50	0.2 µg/mL
Nc1nccc2c1ncn2[C@@H]1C[C@H](CO)[C@@H](O)[C@H]1O	TYPE 1	HeLa	EC50	>400 µg/mL
Nc1ncnc2c1ncn2[C@@H]1C=C(CO)[C@@H](O)[C@H]1O	TYPE 1		MIC	>10 µg/mL
CC(=O)N[C@H]1[C@@H](O[C@@H]2O[C@H](C[C@@H](O)[C@H]3O[C@@H](n4ccc(=O)[nH]c4=O)[C@H](O)[C@@H]3O)[C@H](O)[C@H](O)[C@H]2NC(=O)/C=C/CC(C)C)O[C@H](CO)[C@@H](O)[C@@H]1O	TYPE 1	BSC-1	EC50	>0.5 µg/mL
O=c1[nH]c(=O)n([C@H]2C[C@H](O)[C@@H](CO)O2)cc1/C=C/Br	TYPE 1	HeLa	EC50	>400 µg/mL
Nc1ncnc2c1ccn2[C@@H]1O[C@H](CO)[C@H](O)[C@H]1O	TYPE 1	VERO	EC50	≥40 µg/mL
Cc1cc(=O)c2c(O)c3c(O)cc(O)c4c5c(O)cc(O)c6c(O)c7c(=O)cc(C)c8c1c2c(c34)c(c65)c78	Brunhilde (type 20)	BSC-1	EC50	>100 µg/mL
C#Cc1c(C(N)=O)ncn1[C@@H]1O[C@H](CO)[C@@H](O)[C@H]1O	TYPE 1	HeLa	EC50	>400 µg/mL
OCCOC(CO)n1cnc2cc(Cl)c(Cl)cc21	TYPE 1	HeLa	EC50	>200 µg/mL
Nc1nccc2c1ncn2[C@@H]1C[C@H](CO)[C@@H](O)[C@H]1O	TYPE 1	HeLa	EC50	>400 µg/mL
Nc1ncnc2c1c(Br)cn2[C@@H]1O[C@H](CO)[C@@H](O)[C@H]1O	TYPE 1	HeLa	EC50	0.2 µg/mL
NC(=O)c1ncn([C@@H]2O[C@H](CO)[C@@H](O)[C@H]2O)n1	TYPE 1	HeLa	EC50	20 µg/mL
Nc1nccc2c1ncn2[C@@H]1C[C@H](CO)[C@@H](O)[C@H]1O	TYPE 1	HeLa	EC50	>400 µg/mL
Cc1cn([C@@H]2C[C@H](CO)[C@@H](O)C2)c(=O)[nH]c1=O	TYPE 1	HeLa	EC50	100 µg/mL
NC(=O)c1ncn([C@@H]2O[C@H](CO)[C@@H](O)[C@H]2O)c1C#Cc1ccccc1	TYPE 1	HeLa	EC50	>400 µg/mL
Nc1ncnc2c1ncn2C[C@H](O)CO	TYPE 1	HeLa	EC50	>400 µg/mL
Cc1cn([C@H]2C[C@@H]3OC[C@H]2[C@@H]3CO)c(=O)[nH]c1=O	TYPE 1	HeLa	EC50	400 µg/mL
COC(=O)c1c(SC)nsc1-c1ccccc1	Brunhilde (type 1)	HEP-2	EC50	0.09 µg/mL
Nc1ncnc2c1ncn2[C@H]1[C@H](O)[C@H](O)[C@]2(CO)O[C@H]12	TYPE 1	HeLa	EC50	>10 µg/mL
O[C@@H]1CC(n2cnc3cc(Cl)c(Cl)cc32)OC[C@@H]1O	TYPE 1	HeLa	EC50	>100 µg/mL
Nc1nc(N)c2ncn(C[C@H]3CC[C@@H](CO)C3)c2n1	TYPE 1	HeLa	EC50	>200 µg/mL
N#Cc1c(SCCCCBr)nsc1-c1ccccc1	Brunhilde (type 1)	HEP-2	EC50	>25 µg/mL
NC(=O)c1ccnc([C@@H]2O[C@H](CO)[C@@H](O)[C@H]2O)c1	TYPE 1	HeLa	EC50	>400 µg/mL
CCCSc1nsc(-c2ccccc2)c1C(N)=O	Brunhilde (type 1)	HEP-2	EC50	>300 µg/mL
OC[C@H]1O[C@@H](n2cnc3cc(Cl)c(Cl)cc32)[C@H](O)[C@@H]1O	TYPE 1	HeLa	EC50	>10 µg/mL
Nc1ncnc2c1ncn2C[C@H](O)CO	TYPE 1	HeLa	EC50	>400 µg/mL
N#Cc1c(N2CCCCC2)nsc1-c1ccccc1	Brunhilde (type 1)	HEP-2	EC50	2.5 µg/mL
NC(=O)c1nc(F)c[nH]c1=O		VERO	EC50	4.8 µg/mL
Nc1ncnc2c1ncn2[C@@H]1C=C(CO)[C@@H](O)[C@H]1O	TYPE 1	HeLa	EC50	>10 µg/mL
Nc1ncnc2c1ncn2C1CC(CO)[C@@H](O)[C@H]1O	TYPE 1	HeLa	EC50	≥10 µg/mL